These results are taken from US6911203.

This data set addresses T1, human MAPKK3 (UniProt P46734).
T1 sequence: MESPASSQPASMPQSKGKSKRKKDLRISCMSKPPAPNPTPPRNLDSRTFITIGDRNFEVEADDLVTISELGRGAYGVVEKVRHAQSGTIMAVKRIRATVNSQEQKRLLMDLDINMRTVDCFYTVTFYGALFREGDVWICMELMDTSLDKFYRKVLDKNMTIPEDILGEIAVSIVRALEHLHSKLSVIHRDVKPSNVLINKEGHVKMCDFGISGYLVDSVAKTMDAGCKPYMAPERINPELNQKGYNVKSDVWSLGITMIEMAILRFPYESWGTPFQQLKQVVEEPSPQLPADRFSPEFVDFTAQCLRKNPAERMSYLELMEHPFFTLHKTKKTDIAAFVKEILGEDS

Regarding anthrax lethal factor (LF), the “cleavage by LF” value was “LF also cleaves MAPKK3”.
